Measured values from several laboratories, pooled; numbers as filed in NIAID ChemDB.

Shared fields: target-level tests; organism: HIV-1; target: Reverse transcriptase

ICn: concentration for n% inhibition.

compound,conditions,strain or isolate,measure,mutations,read by,value
COc1cc(C(=O)Oc2c(-c3ccc(Cl)cc3)oc3ccccc3c2=O)ccc1OC(C)=O,,,IC50,,,>100 µM
Cc1cn([C@H]2C=C[C@@H](COP(=O)(O)OP(=O)(O)OP(=O)(O)O)O2)c(=O)[nH]c1=O,,,Ki,RT-M184V,,200 µM
Cc1ccc2c(c1)nc(-c1c(F)cccc1F)n2Cc1c(F)cccc1F,,,IC50,,,>10 µM
CCC1(c2ccc(COc3cccc(Cl)c3)cc2)Oc2ccccc2-n2cccc2C1=O,,,IC50,RT-L100I,nucleotide incorporation / radiometric,0.25 µM
COc1ccc(CSc2nc(Cc3ccc(F)cc3)c(C)c(=O)[nH]2)cc1,,,IC50,RT-181I,nucleotide incorporation / radiometric,>400 µM
S=C(NCCc1ccc(Br)cc1)Nc1ccc(Br)cn1,,,IC50,,scintillation proximity,2.7 µM
O=C(/C=C/c1ccc(O)c(O)c1)O[C@@H]1CC(O)(C(=O)O)C[C@@H](OC(=O)/C=C/c2ccc(O)c(O)c2)C1O,,LAI,IC50,,,107 µM
CCc1c(Sc2ccccc2)n(COCc2ccccc2)c(=O)[nH]c1=O,,,IC50,RT-L100I,RT activity,0.4 µM
CSC1N=S(=O)(c2ccccc2)c2ccccc2N1,,,IC50,,,>0.3 µM
N#Cc1ccc(Nc2nccc(Oc3cc4c(cc3Br)c(=O)c(C(=O)O)cn4C3CC3)n2)cc1,,,IC50,,RT activity / fluorescence,10.05 µM
Cc1ccc2c(c1O)C(=O)C=CC2=O,,,IC50,,RT activity,23 µg/mL
CCc1cc(CCc2nc3ccccc3o2)c(=S)[nH]c1C,,,IC50,RT-Y181C,nucleotide incorporation,5 µM
CCN1c2ncccc2C(=O)N(C)c2ccc(-c3cc[nH]c3)nc21,,,IC50,RT-K103N,nucleotide incorporation,0.05 µM
Cc1c(Cc2c(F)cccc2F)nc(SCc2ccc([N+](=O)[O-])cc2)[nH]c1=O,,WT,IC50,,nucleotide incorporation / radiometric,>400 µM
CCc1c(Sc2ccccn2)n(COCc2ccccc2)c(=O)[nH]c1=O,,,IC50,RT-L100I,,8 µM
Cc1cc(O)c2c(c1F)C(=O)C=CC2=O,,,IC50,,RT activity,13 µg/mL
CCC(C)n1cc(C(=O)O)c(=O)c2cc(I)c(Oc3ccnc(Nc4ccc(C#N)cc4)n3)cc21,,,IC50,,RT activity / fluorescence,1.38 µM
O=C1N=S(=O)(c2ccccc2)c2ccccc2N1,,,IC50,,,11.3 µM
CCOc1ccc(CSc2nc(Cc3c(Cl)cccc3Cl)c(C)c(=O)[nH]2)cc1,,,IC50,RT-K103N,nucleotide incorporation / radiometric,>400 µM
Cc1cc(Cl)c2c(c1O)C(=O)C=CC2=O,,,IC50,,RT activity,12.5 µg/mL
COc1cc(C(=O)Oc2c(-c3ccc(Cl)c(Cl)c3)oc3ccccc3c2=O)cc(OC)c1O,,,IC50,,,>100 µM
COc1ccc(C(C)=O)c(O)c1[C@H]1C[C@H]1NC(=S)Nc1ccc(Cl)cn1,,,IC50,,ELISA,0.24 µM
O=c1c(O)c(-c2ccc(Cl)c(Cl)c2)oc2ccccc12,,,IC50,,,>100 µM
CCCCn1cc(C(=O)O)c(=O)c2cc(I)c(Oc3ccnc(Nc4ccc(C#N)cc4)n3)cc21,,,IC50,,RT activity / fluorescence,0.51 µM
CCC1(c2cccc(Cl)c2)Cc2ccccc2-n2cccc2C1=O,,,IC50,RT-Y188L,nucleotide incorporation / radiometric,>10 µM
Cc1cn([C@@H]2CC[C@H](COP(=O)(O)OP(=O)(O)OP(=O)(O)O)O2)c(=O)[nH]c1=O,,,Ki,,,110 µM
O=C1c2cccnc2C(=O)N1CCNC(=S)Nc1ccc(Br)cn1,,,Ki,RT-L100I,nucleotide incorporation,0.2 µM
COC(=O)[C@H](C)NP(=O)(OC[C@@H]1C=C[C@H](n2cc(C)c(=O)[nH]c2=O)O1)Oc1ccccc1,,,IC50,,RT activity,>100 µM
Oc1ccc(CCNC(=S)Nc2ccc(Br)cn2)cc1,,,Ki,,scintillation proximity,104 µM
CC1SC(c2c(F)cccc2F)N(Cc2ccco2)C1=O,,,IC50,,ELISA,>10 µg/mL
O=c1cc(-c2ccccc2)oc2cc(O)c(O)c(O)c12,,,Ki,,nucleotide incorporation,2.52 µM
Cc1cn([C@H]2C=C[C@@H](COP(=O)(O)OP(=O)(O)OP(=O)(O)O)O2)c(=O)[nH]c1=O,,,IC50,RT-P225H,nucleotide incorporation / radiometric,0.03 µM
Cc1c(Cc2c(Cl)cccc2Cl)nc(S(=O)(=O)Cc2ccc(Br)cc2)[nH]c1=O,,,IC50,RT-181I,nucleotide incorporation / radiometric,>400 µM
COC(=O)C(=O)OC1(C(=O)O)C[C@@H](OC(=O)/C=C/c2ccc(O)c(O)c2)C(O)[C@H](OC(=O)/C=C/c2ccc(O)c(O)c2)C1,,LAI,IC50,,,7 µM
COc1cc(C)c(Cl)c2c1C(=O)C=CC2=O,,,IC50,,RT activity,25 µg/mL
C=C(C)CCOCc1ccc(C2(CC)Oc3ccccc3-n3cccc3C2=O)cc1,,,IC50,RT-K103N,nucleotide incorporation / radiometric,>10 µM
Cc1cccc2c1nc(-c1c(F)cccc1F)n2Cc1cccnc1,,,IC50,,,<10 µM
COc1ccc2[nH]cc(CCO)c2c1,,,IC50,,,>8000 µM
Cc1cccc(N2C(=O)CSC23CCCCC3)n1,,,IC50,,ELISA,>10 µg/mL
Nc1nc2c(ncn2[C@H]2CC[C@@H](COP(=O)(O)OP(=O)(O)OP(=O)(O)O)O2)c(=O)[nH]1,,WT,IC50,,nucleotide incorporation / radiometric,0.13 µM
COc1ccc2c(c1)N(C(=O)OC(C)C)[C@@H](CSC)C(=S)N2,,,IC50,RT-Y181I,scintillation proximity / radiometric,3.9 µM
Cc1cn([C@H]2CC[C@@H](COP(=O)(O)OP(=O)(O)OP(=O)(O)O)O2)c(=O)[nH]c1=O,,,Ki,RT-M184V,,8.1 µM
CCc1cc(CCc2nc3ccccc3o2)c(=O)[nH]c1C,,,IC50,RT-Y181C,nucleotide incorporation,17.2 µM
Nc1ccn([C@H]2CC[C@@H](COP(=O)(O)OP(=O)(O)OP(=O)(O)O)O2)c(=O)n1,,,IC50,RT-P225H,nucleotide incorporation / radiometric,3.1 µM
O=C(Oc1c(-c2ccc(Cl)cc2)oc2ccccc2c1=O)c1cc(O)c(O)c(O)c1,,,IC50,,,100 µM
Fc1cccc(F)c1Cn1c(-c2c(F)cccc2F)nc2cc(Cl)ccc21,,,IC50,,,~10 µM
Cc1ccc2c(c1)n(CCNC(=S)Nc1ccc(Br)cn1)c(=O)c1cccn12,,,Ki,RT-Y181I,nucleotide incorporation,0.7 µM
Fc1cccc(F)c1Cn1c(-c2c(F)cccc2F)nc2ccc(Cl)cc21,,,IC50,,,<10 µM
CCc1c(Sc2ccccn2)n(COCc2ccccc2)c(=O)[nH]c1=O,,RT-WT,IC50,,RT activity,0.1 µM
Cn1cc(C(=O)O)c(=O)c2cc(Br)c(Oc3ccnc(Nc4ccc(C#N)cc4)n3)cc21,,,IC50,,RT activity / fluorescence,1.15 µM
Cc1cc2c(c(O)c1-c1c(C)cc(O)c3c1C(=O)C=CC3=O)C(=O)C=CC2=O,,,IC50,,RT activity,>100 µg/mL
Cc1cccc2c1nc(-c1c(F)cccc1F)n2Cc1c(Cl)cccc1Cl,,,IC50,,,~10 µM
O=C(/C=C/c1ccc(O)c(O)c1)Oc1c(-c2ccc(Cl)c(Cl)c2)oc2ccccc2c1=O,,,IC50,,,80 µM
Cc1c(Cc2c(F)cccc2F)nc(SCc2ccc(C#N)cc2)[nH]c1=O,,,IC50,RT-K103N,nucleotide incorporation / radiometric,>400 µM
COc1ccc2[nH]c(=O)oc2c1,,,IC50,,,<800 µM
Cc1cn([C@H]2C=C[C@@H](COP(=O)(O)O)O2)c(=O)[nH]c1=O,,,IC50,,RT activity,>100 µM
CCC1(c2ccccc2)Cc2ccccc2-n2cccc2C1=O,,WT,IC50,,nucleotide incorporation / radiometric,>10 µM
Cc1c(Cc2c(Cl)cccc2Cl)nc(SCc2ccc(C(C)C)cc2)[nH]c1=O,,,IC50,RT-K103N,nucleotide incorporation / radiometric,>400 µM
O=c1c2cccn2c2cccc(F)c2n1CCNC(=S)Nc1ccc(Br)cn1,,,Ki,RT-Y181I,nucleotide incorporation,0.2 µM
CN(C)c1ccc(C2SCC(=O)N2c2ccccn2)cc1,,,IC50,,ELISA,>10 µg/mL
O=S1(c2ccccc2)=NC(=S)Nc2ccccc21,,,IC50,,,1.2 µM
CC(C)n1cc(C(=O)O)c(=O)c2cc(Br)c(Oc3ccnc(Nc4ccc(C#N)cc4)n3)cc21,,,IC50,,RT activity / fluorescence,1.39 µM
Cc1ccc(CN2C(=O)CSC2c2c(F)cccc2Cl)o1,,,IC50,,ELISA,<10 µg/mL
Cc1cc(O)c2c(c1)C(=O)C=C(c1c(C)cc(O)c3c1C(=O)C=CC3=O)C2=O,,,IC50,,RT activity,>100 µg/mL
Cc1cc(C)cc(C(=O)c2cc(Cl)ccc2OCCN2CCC(=O)NC2=O)c1,pseudotyped,,Ki,K103N,RT activity,33 µM
CSCSc1nc(Cc2ccccc2)c(C(C)C)c(=O)[nH]1,,IIIB,IC50,,,6.1 µM
CCC1(c2cccc(Cl)c2)Oc2ccccc2-n2cccc2C1=O,,,IC50,RT-V106A,nucleotide incorporation / radiometric,0.2 µM
COc1cc(C(=O)Oc2c(-c3ccc(Cl)cc3)oc3ccccc3c2=O)ccc1O,,,IC50,,,>100 µM
CC(C)=CCN1Cc2cccc3[nH]c(=S)n(c23)C[C@@H]1C,,NDK,IC50,,nucleotide incorporation,0.7 µM
CCCn1cc(C(=O)O)c(=O)c2cc(I)c(Oc3ccnc(Nc4ccc(C#N)cc4)n3)cc21,,,IC50,,RT activity / fluorescence,0.63 µM
Cc1c(Sc2ccccc2)n(COCCO)c(=O)[nH]c1=O,,,IC50,,nucleotide incorporation,53 µM
O=[N+]([O-])c1ccc(CCNC(=S)Nc2ccc(Br)cn2)cc1,,,Ki,,scintillation proximity,84 µM
O=c1c2cccn2c2ccccc2n1CCNC(=S)Nc1ccc(Br)cn1,,,Ki,RT-V106A,nucleotide incorporation,0.112 µM
COc1cc(C(=O)Oc2c(-c3ccc(Cl)cc3)oc3ccccc3c2=O)cc(OC)c1O,,,IC50,,,>100 µM
CCC1(c2cccc(I)c2)Oc2ccccc2-n2cccc2C1=O,,,IC50,RT-Y181I,nucleotide incorporation / radiometric,>10 µM
Cc1cccc2c1nc(-c1c(F)cccc1F)n2S(=O)(=O)c1ccccc1,,,IC50,,,<10 µM
CC(C)Nc1cccnc1N1CCN(C(=O)c2cc3ccccc3[nH]2)CC1,,MN,IC50,,nucleotide incorporation,1.4 µM

The last 10 rows once more:

compound,conditions,strain or isolate,measure,mutations,read by,value
COc1cc(C(=O)Oc2c(-c3ccc(Cl)cc3)oc3ccccc3c2=O)ccc1O,,,IC50,,,>100 µM
CC(C)=CCN1Cc2cccc3[nH]c(=S)n(c23)C[C@@H]1C,,NDK,IC50,,nucleotide incorporation,0.7 µM
CCCn1cc(C(=O)O)c(=O)c2cc(I)c(Oc3ccnc(Nc4ccc(C#N)cc4)n3)cc21,,,IC50,,RT activity / fluorescence,0.63 µM
Cc1c(Sc2ccccc2)n(COCCO)c(=O)[nH]c1=O,,,IC50,,nucleotide incorporation,53 µM
O=[N+]([O-])c1ccc(CCNC(=S)Nc2ccc(Br)cn2)cc1,,,Ki,,scintillation proximity,84 µM
O=c1c2cccn2c2ccccc2n1CCNC(=S)Nc1ccc(Br)cn1,,,Ki,RT-V106A,nucleotide incorporation,0.112 µM
COc1cc(C(=O)Oc2c(-c3ccc(Cl)cc3)oc3ccccc3c2=O)cc(OC)c1O,,,IC50,,,>100 µM
CCC1(c2cccc(I)c2)Oc2ccccc2-n2cccc2C1=O,,,IC50,RT-Y181I,nucleotide incorporation / radiometric,>10 µM
Cc1cccc2c1nc(-c1c(F)cccc1F)n2S(=O)(=O)c1ccccc1,,,IC50,,,<10 µM
CC(C)Nc1cccnc1N1CCN(C(=O)c2cc3ccccc3[nH]2)CC1,,MN,IC50,,nucleotide incorporation,1.4 µM

Blank or dashed fields: not listed here. Rows are shuffled and stem from different studies.